Measured values from several laboratories, pooled; numbers as filed in NIAID ChemDB.

Shared fields: tests on isolated targets; organism: HIV-1; protein: Reverse transcriptase

An empty or dashed field is not shown.

structure,strain or isolate,changes,method,measure,dose,value
CC(C)(C)c1ccc(-n2nnnc2SCC(=O)Nc2ccc(NC(=O)Cc3cccc([N+](=O)[O-])c3)cc2Cl)c(Cl)c1,WT,,PicoGreen / fluorescence,IC50,,<1 µM
CCN1c2ncc(CCOc3ccc(-c4ncc[nH]4)cc3C)cc2C(=O)N(C)c2cccnc21,IIIB,RT-K103N Y181C,nucleotide incorporation / radiometric,IC50,,<0.05 µM
Nc1ccn([C@@H]2CS[C@H](COP(=O)(O)OP(=O)(O)OP(=O)(O)O)O2)c(=O)n1,,RT-K65R,nucleotide incorporation,Ki,,1.4 µM
CCN1c2ncc(CCOc3ccc(-c4csc(N)n4)cc3C)cc2C(=O)N(C)c2cccnc21,IIIB,RT-K103N Y181C,nucleotide incorporation / radiometric,fold resistance,,1
Cc1cc(S(N)(=O)=O)ccc1NC(=O)CSc1nnc(CF)n1-c1c(C)cc(C)c2ccccc12,,RT-Y188L,nucleotide incorporation / radiometric,fold resistance,,>2
CCN1c2ncc(CCOc3ccc(-c4ccc(C(=O)O)c(Cl)c4)cc3C)cc2C(=O)N(C)c2cccnc21,IIIB,RT-K103N Y181C,nucleotide incorporation / radiometric,IC50,,0.05–0.1 µM
C=Cc1cc(N(CCC)CCC)nc(S(C)(=O)=O)n1,,RT-K103N,nucleotide incorporation / radiometric,Ki,,>400 µM
Cc1cc(S(N)(=O)=O)ccc1NC(=O)C(C)Sc1nnc(Br)n1-c1c(C)ccc2ccccc12,,RT-Y188L,nucleotide incorporation / radiometric,fold resistance,,>2
CC(C)(C)c1ccc(-n2nnnc2SCC(=O)Nc2ccc(NC(=O)C(C)(C)c3ccccc3)cc2Cl)c(Cl)c1,WT,,PicoGreen / fluorescence,IC50,,<1 µM
C#CC(O)/C=C/C/C=C/C=C/C=C/CC#CC(O)C#CC/C=C/C=C/C=C/CC(O)C#C,,,radiometric,IC95,,9.5 µM
CCCc1ccc(-n2c(Br)nnc2SCC(=O)Nc2ccc(S(N)(=O)=O)cc2Cl)c2ccccc12,,RT-Y188L,nucleotide incorporation / radiometric,fold resistance,,>2
CCNC(=O)N1CCc2c(OCCc3cnc4c(c3)C(=O)N(C)c3cccnc3N4CC)ccc(C(=O)O)c2C1,,RT-K103N Y181C,nucleotide incorporation / radiometric,fold resistance,,1–10
CC(C)(C#Cc1ccc(NC(=O)CSc2nnnn2-c2cc(C3CC3)ccc2Cl)c(Cl)c1)NC(=O)CN1CCNCC1,,RT-K103 Y181C,PicoGreen / fluorescence,IC50,,<1 µM
Cc1cc(C)c2c(c1)N(C(C)C)C(=O)c1ccnnc1O2,,,ELISA,inhibition,33 µM,65%
CC(=O)Nc1cc2c(cc1OC(F)(F)F)CCN(c1nn3c(C)nnc3c3ccccc13)C2,98US_MSC5016,,RT activity / fluorescence,IC90,,1.15 µM
O=C(COc1ccc(NC(=O)CSc2nnnn2-c2ccc(C3CC3)cc2Cl)c(Cl)c1)NCCc1ccncc1,WT,,PicoGreen / fluorescence,IC50,,<1 µM
COc1ccc2c(c1)N(CC(C)C)C(=O)c1ccnnc1O2,,,ELISA,inhibition,33 µM,21%
Nc1cc2c(cc1F)CN(c1nn3c(C4CC4)nnc3c3ccccc13)CC2,98US_MSC5016,,RT activity / fluorescence,IC90,,2.57 µM
CC(C)(C#Cc1ccc(NC(=O)CSc2nnnn2-c2ccc(C(C)(C)C)cc2Cl)c(Cl)c1)OCC(=O)Nc1ccc(C(=O)O)cc1,WT,,PicoGreen / fluorescence,IC50,,<1 µM
FC(F)(F)c1nnc2c3ccccc3c(N3CCc4ccccc4C3)nn12,IIIB,,RT activity / fluorescence,IC90,,10.5 µM
Nc1ccn([C@H]2CC[C@@H](COP(=O)(O)OP(=O)(O)OP(=O)(O)O)O2)c(=O)n1,,RT-Q151M,nucleotide incorporation / radiometric,Ki,,22 µM
Cc1ccc(-n2nnnc2SCC(=O)Nc2ccc(-c3cccc(CC(=O)O)c3)cc2Cl)c(Cl)c1,WT,,PicoGreen / fluorescence,IC50,,<1 µM
CN(CC(=O)O)C(=O)c1ccc(NC(=O)CSc2nnc(Br)n2-c2ccc(C3CC3)c3ccccc23)c(Cl)c1,,RT-Y188L,nucleotide incorporation / radiometric,fold resistance,,>2
Cc1cn([C@H]2CC[C@@H](COP(=O)(O)OP(=O)(O)OP(=O)(O)O)O2)c(=O)[nH]c1=O,,RT-Q151M,nucleotide incorporation / radiometric,Ki,,0.075 µM
Nc1nc2c(ncn2[C@H]2CC[C@@H](COP(=O)(O)OP(=O)(O)OP(=O)(O)O)O2)c(=O)[nH]1,,RT-K65R,,Ki,,0.015 µM
CN1CCN(C(=O)c2ccc(NC(=O)CSc3nnnn3-c3ccc(C(C)(C)C)cc3Cl)c(Cl)c2)CC1,WT,,PicoGreen / fluorescence,IC50,,<1 µM
CCc1ccc(-n2c(Br)nnc2SCC(=O)Nc2ccc(C(=O)NCCN(C)C)cc2Cl)c2ccccc12,,RT-Y188L,nucleotide incorporation / radiometric,fold resistance,,>2
CN(C)S(=O)(=O)NC(=O)C(C)(C)C#Cc1ccc(NC(=O)CSc2nnnn2-c2ccc(C3CC3)cc2Cl)c(Cl)c1,WT,,PicoGreen / fluorescence,IC50,,<1 µM
CCN1c2ncc(CCOc3ccc(-c4ccc(C(=O)O)o4)cc3C)cc2C(=O)N(C)c2cccnc21,IIIB,RT-K103N Y181C,nucleotide incorporation / radiometric,fold resistance,,>2
Cc1ccc2c(c1)N(CC1CC1)C(=O)c1ccnnc1O2,,,ELISA,inhibition,330 µM,74%
CCCN1C(=O)c2ccnnc2N(CCC)c2ccccc21,,,,inhibition,330 µM,65%
CCN1c2ncc(CCOc3ccc(CCC(=O)O)c4ccccc34)cc2C(=O)N(C)c2ccc(Cl)nc21,,RT-K103N Y181C,nucleotide incorporation / radiometric,IC50,,0.1–1 µM
CCN1c2ncc(CCOc3ccc(-c4ccc(CCC(=O)O)o4)cc3C)cc2C(=O)N(C)c2cccnc21,IIIB,,nucleotide incorporation / radiometric,IC50,,<0.05 µM
O=C(CSc1nnc(Br)n1-c1ccc(C2CCC2)c2ccccc12)Nc1ccc(C(=O)O)cc1Cl,,RT-Y188L,nucleotide incorporation / radiometric,fold resistance,,>2
CCCN1c2ccc(C)cc2N(C)C(=O)c2cc(Cl)nnc21,,,,inhibition,33 µM,0%
CC(C)(C)c1ccc(-n2nnnc2SCC(=O)Nc2ccc(NC(=O)NCc3ccccc3)cc2Cl)c(Cl)c1,WT,,PicoGreen / fluorescence,IC50,,<1 µM
O=C(NCCc1ccccc1)Nc1ncccn1,,,nucleotide incorporation,inhibition,1 µg/mL,12%
CC(C)(C)c1ccc(-n2nnnc2SCC(=O)Nc2ccc(-c3ccc(OCCN4CCCCC4)cc3)cc2Cl)c(Cl)c1,,RT-K103 Y181C,PicoGreen / fluorescence,IC50,,<1 µM
CCNC(=O)c1ccc(NC(=O)CSc2nnc(Br)n2-c2ccc(CC)c3ccccc23)c(Cl)c1,,RT-Y188L,nucleotide incorporation / radiometric,fold resistance,,>2
CCCN1C(=O)c2cc(Cl)nnc2N(CC)c2ccc(C)cc21,,,,inhibition,33 µM,7%
CC(C)(C#Cc1ccc(NC(=O)CSc2nnnn2-c2ccc(CC3CC3)cc2Cl)c(Cl)c1)C(=O)NCCCN1CCCC1=O,,RT-K103 Y181C,PicoGreen / fluorescence,IC50,,<1 µM
CCc1ccc(-n2c(Br)nnc2SCC(=O)Nc2ccc(C(=O)N[C@H](C(=O)OC)C(C)C)cc2Cl)c2ccccc12,,RT-Y188L,nucleotide incorporation / radiometric,fold resistance,,<1
CN(C)CCCC(=O)NC(C)(C)C#Cc1ccc(NC(=O)CSc2nnnn2-c2cc(C(F)(F)F)ccc2Cl)c(Cl)c1,,RT-K103 Y181C,PicoGreen / fluorescence,IC50,,<1 µM
CCc1ccc(-n2c(SCC(=O)Nc3ccc(S(N)(=O)=O)cc3C)nnc2C(F)F)c2ccccc12,,RT-Y181C,nucleotide incorporation / radiometric,fold resistance,,>1
CCN1c2ncc(CCOc3ccc(-c4cnc[nH]4)cc3C)cc2C(=O)N(C)c2cccnc21,IIIB,RT-K103N Y181C,nucleotide incorporation / radiometric,IC50,,<0.05 µM
Cc1nnc2ccc(N3CCc4ccccc4C3)nn12,98US_MSC5016,,RT activity / fluorescence,IC90,,48.9 µM
Cc1ccc2c(c1)Oc1nnccc1C(=O)N2C,,,ELISA,inhibition,33 µM,13%
CC(C)(C)c1ccc(-n2nnnc2SCC(=O)Nc2ccc(NC(=O)Cc3ccccc3Cl)cc2Cl)c(Cl)c1,WT,,PicoGreen / fluorescence,IC50,,<1 µM
CCN1c2ncc(CCOc3ccc(NS(C)(=O)=O)c4ccccc34)cc2C(=O)N(C)c2ccc(F)nc21,,RT-V106A,nucleotide incorporation / radiometric,fold resistance,,1–10
O=C(O)Cc1ccc(-c2ccc(NC(=O)CSc3nnnn3-c3ccc4ncsc4c3Cl)c(Cl)c2)cc1,,RT-K103 Y181C,PicoGreen / fluorescence,IC50,,<1 µM
O=C(NCCc1ccccc1)Nc1nc2ccc(F)cc2s1,,,nucleotide incorporation,inhibition,10 µg/mL,39%
CCN1c2ncc(CCOc3ccc(CC(C)C(=O)O)c4ccccc34)cc2C(=O)N(C)c2ccc(Cl)nc21,,RT-V106A,nucleotide incorporation / radiometric,fold resistance,,>10
Cc1cc(C2CC2)ccc1-n1c(Br)nnc1SCC(=O)Nc1ccc(S(N)(=O)=O)cc1Cl,,RT-Y188L,nucleotide incorporation / radiometric,fold resistance,,>2
C=Cc1cc(N(C)C)nc(S(C)(=O)=O)n1,,RT-V179D,nucleotide incorporation / radiometric,Ki,,0.015 µM
CC(C)(C#Cc1ccc(NC(=O)CSc2nnnn2-c2cc(C(F)(F)F)cc(C3CC3)c2Cl)c(Cl)c1)OCCN1CCNCC1,WT,,PicoGreen / fluorescence,IC50,,<1 µM
Cc1cc(C2CC2)c2ccccc2c1-n1c(Br)nnc1SCC(=O)Nc1ccc(S(=O)(=O)O)cc1Cl,,RT-Y188L,nucleotide incorporation / radiometric,fold resistance,,>1
CCN1c2ncc(CCOc3ccc(NC(=O)c4ccc(C(=O)O)cn4)cc3C)cc2C(=O)N(C)c2cccnc21,IIIB,RT-K103N Y181C,nucleotide incorporation / radiometric,IC50,,<0.05 µM
Cc1cc(S(N)(=O)=O)ccc1NC(=O)CSc1nnc(CF)n1-c1ccc(C)c2c1CCCC2,,RT-Y181C,nucleotide incorporation / radiometric,fold resistance,,>2
COc1ccc(OC)c(C/C=C(\C)CC/C=C(\C)CC/C=C(\C)CC/C=C(\C)CC/C=C(\C)CCC=C(C)C)c1,,,nucleotide incorporation,IC90,,38.5 µM
Cc1ccc(-n2c(SCC(=O)Nc3ccc(S(=O)(=O)NC(C)C(=O)O)cc3Cl)nnc2C(F)F)c2c1CCCC2,,RT-Y181C,nucleotide incorporation / radiometric,fold resistance,,>2
CC(C)(C)c1ccc(-n2nnnc2SCC(=O)Nc2ccc(NS(=O)(=O)c3cccs3)cc2Cl)c(Cl)c1,,RT-K103 Y181C,PicoGreen / fluorescence,IC50,,<1 µM
c1ccc2c(c1)CCN(c1nn3c(C4CC4)nnc3c3ccccc13)C2,IIIB,,RT activity / fluorescence,IC90,,2.68 µM
CN1C(=O)c2cc(-n3ccnc3)nnc2N(C2CC2)c2ccccc21,,,,inhibition,330 µM,23%
CCc1ccc(-n2c(Br)nnc2SCC(=O)Nc2ccc(C(=O)O)cc2C)c2ccccc12,,RT-Y181C,nucleotide incorporation / radiometric,fold resistance,,>1
CC(C)(C)c1ccc(-n2nnnc2SCC(=O)Nc2ccc(C(=O)NN3CCOCC3)cc2Cl)c(Cl)c1,WT,,PicoGreen / fluorescence,IC50,,<1 µM
O=C(NCCc1ccccc1)Nc1nc(C(F)(F)F)cs1,,,nucleotide incorporation,inhibition,1 µg/mL,73–75%
CC(C)c1ccc(-n2nnnc2SCC(=O)Nc2ccc(-c3ccc(OCCN4CCCC4)cc3)cc2Cl)c(Cl)c1,,RT-K103 Y181C,PicoGreen / fluorescence,IC50,,<1 µM
COc1cc2c(cc1[N+](=O)[O-])CN(c1nn3c(C4CC4)nnc3c3ccccc13)CC2,98US_MSC5016,,RT activity / fluorescence,IC90,,83.6 µM

Again, the opening 8 rows:

structure	strain or isolate	changes	method	measure	dose	value
CC(C)(C)c1ccc(-n2nnnc2SCC(=O)Nc2ccc(NC(=O)Cc3cccc([N+](=O)[O-])c3)cc2Cl)c(Cl)c1	WT		PicoGreen / fluorescence	IC50		<1 µM
CCN1c2ncc(CCOc3ccc(-c4ncc[nH]4)cc3C)cc2C(=O)N(C)c2cccnc21	IIIB	RT-K103N Y181C	nucleotide incorporation / radiometric	IC50		<0.05 µM
Nc1ccn([C@@H]2CS[C@H](COP(=O)(O)OP(=O)(O)OP(=O)(O)O)O2)c(=O)n1		RT-K65R	nucleotide incorporation	Ki		1.4 µM
CCN1c2ncc(CCOc3ccc(-c4csc(N)n4)cc3C)cc2C(=O)N(C)c2cccnc21	IIIB	RT-K103N Y181C	nucleotide incorporation / radiometric	fold resistance		1
Cc1cc(S(N)(=O)=O)ccc1NC(=O)CSc1nnc(CF)n1-c1c(C)cc(C)c2ccccc12		RT-Y188L	nucleotide incorporation / radiometric	fold resistance		>2
CCN1c2ncc(CCOc3ccc(-c4ccc(C(=O)O)c(Cl)c4)cc3C)cc2C(=O)N(C)c2cccnc21	IIIB	RT-K103N Y181C	nucleotide incorporation / radiometric	IC50		0.05–0.1 µM
C=Cc1cc(N(CCC)CCC)nc(S(C)(=O)=O)n1		RT-K103N	nucleotide incorporation / radiometric	Ki		>400 µM
Cc1cc(S(N)(=O)=O)ccc1NC(=O)C(C)Sc1nnc(Br)n1-c1c(C)ccc2ccccc12		RT-Y188L	nucleotide incorporation / radiometric	fold resistance		>2

a–b is a range or a potency band. Fold resistance has wild type as its base. ICn: concentration for n% inhibition. Lines come from different laboratories, so protocols vary. Percent inhibition refers to the dose given; in toxicity tests it is the harm to the cells.